For assay [1], the target named is tHA (Asiatic toad influenza-like virus HA) (Wuhan asiatic toad influenza virus, UniProt A0A2P1GNQ1). As to conditions: read-out: affinity; biotinylated glycan immobilised; PBST pH 7.4, 25 °C; kinetic 1:1 Langmuir fit; labelled compound.
The target of assay [2] is InH5 HA (A/Indonesia/5/2005) (Influenza A virus (A/Indonesia/5/2005(H5N1)), UniProt C5MRF2). To be noted: read-out: affinity; biotinylated glycan immobilised; PBST pH 7.4, 25 °C; steady state affinity model; labelled compound.

For the substance “NeuAcα2–3Galβ1–4GlcNAcβ1–3Galβ1–4GlcNAcβ1-SpNH-LC-LC-Biotin [α2–3 glycans (3′SLNLN, biotinylated)]”, the Kd worked out at 0.0353 µM in assay [1] and 68.3 µM in assay [2].

The values above are taken from article PMC12654924 (PLOS Pathogens, 2025).
